Data taken from paper PMC6082571.

Legend:
[1] = biological target: T1, NFATc1 (NFAT2) (UniProt O95644); test: EMSA; conditions: NFAT-alone band; 50 mM KCl, 25 mM Hepes pH 7.6, 10% glycerol, 1 mM EDTA, 0.5 mM spermidine, 0.5 mM PMSF, 1 mM DTT, 2 ug poly(dI/dC), 2 ug BJAB nuclear extract, room temperature; protein in an extract; label: 32P
T1 sequence (looked up, limits assumed): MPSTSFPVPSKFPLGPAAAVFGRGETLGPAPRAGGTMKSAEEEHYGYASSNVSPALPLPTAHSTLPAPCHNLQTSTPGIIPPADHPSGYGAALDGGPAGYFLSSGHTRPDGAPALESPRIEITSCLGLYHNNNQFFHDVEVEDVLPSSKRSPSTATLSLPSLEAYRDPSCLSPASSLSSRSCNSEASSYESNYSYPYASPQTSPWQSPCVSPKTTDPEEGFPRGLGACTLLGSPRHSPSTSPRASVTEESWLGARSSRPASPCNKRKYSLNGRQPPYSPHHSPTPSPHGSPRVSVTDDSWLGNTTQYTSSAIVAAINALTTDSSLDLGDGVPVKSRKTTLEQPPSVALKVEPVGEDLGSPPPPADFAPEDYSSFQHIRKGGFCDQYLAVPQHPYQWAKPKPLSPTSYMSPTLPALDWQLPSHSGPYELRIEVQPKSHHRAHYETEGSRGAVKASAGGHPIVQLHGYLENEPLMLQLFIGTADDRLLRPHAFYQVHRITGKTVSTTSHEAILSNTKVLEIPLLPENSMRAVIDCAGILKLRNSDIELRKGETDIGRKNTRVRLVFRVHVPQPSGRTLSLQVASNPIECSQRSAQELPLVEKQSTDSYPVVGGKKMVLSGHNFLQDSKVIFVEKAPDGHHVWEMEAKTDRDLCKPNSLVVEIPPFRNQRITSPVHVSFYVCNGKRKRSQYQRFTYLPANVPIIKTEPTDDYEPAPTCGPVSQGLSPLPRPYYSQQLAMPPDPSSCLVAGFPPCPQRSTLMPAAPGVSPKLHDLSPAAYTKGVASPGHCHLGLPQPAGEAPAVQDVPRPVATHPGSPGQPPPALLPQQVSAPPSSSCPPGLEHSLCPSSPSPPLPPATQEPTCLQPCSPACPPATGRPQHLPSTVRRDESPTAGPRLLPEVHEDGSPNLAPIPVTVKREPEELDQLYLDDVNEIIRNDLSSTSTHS

[2] = system: NFATc1 (NFAT2) + cFos (AP1 component); test: EMSA supershift; conditions: anti-IgM treated extract only, supershifted by anti-cFos, not anti-XBP1, competed by AP1 and NFAT consensus oligos; 50 mM KCl, 25 mM Hepes pH 7.6, 10% glycerol, 1 mM EDTA, 0.5 mM spermidine, 0.5 mM PMSF, 1 mM DTT, 2 ug poly(dI/dC), 2 ug BJAB nuclear extract, room temperature; protein in an extract; label: 32P
[3] = biological target: T1, NFATc1 (NFAT2); test: EMSA with antibody block; conditions: anti-NFATc1 blocks most of the binding, anti-C/EBPa little effect, seen with and without anti-IgM; 50 mM KCl, 25 mM Hepes pH 7.6, 10% glycerol, 1 mM EDTA, 0.5 mM spermidine, 0.5 mM PMSF, 1 mM DTT, 2 ug poly(dI/dC), 2 ug BJAB nuclear extract, room temperature; protein in an extract; label: 32P
[4] = biological target: T1, NFATc1 (NFAT2); test: competition with a labelled probe; conditions: 10X unlabeled vs Zp-V3 -155/-127 probe; 50 mM KCl, 25 mM Hepes pH 7.6, 10% glycerol, 1 mM EDTA, 0.5 mM spermidine, 0.5 mM PMSF, 1 mM DTT, 2 ug poly(dI/dC), 2 ug BJAB nuclear extract, room temperature; protein in an extract; label: unlabeled

“CCTCCTCCTCTTTTGGAAACTATGCATGAGCCACAG (double strand) [Zp-V3 -155 to -120]”: binds [1]; binds [2].

“CCTCCTCCTCTTTTGGAAACTATGCATGA (double strand) [Zp-V3 -155 to -127]”: binds [3].

“AGAAAGGAGGAAAAACTGTTTCATACAGAAGGCGTT (double strand) [NFAT (1) consensus]”: binds [4].

For at least one entry, the source does not settle the construct or the ends of the probe. Where cells or extracts were used, other partners may take part. For some of these results: At least one verdict rests on a figure or table, not on a statement of the authors. For some of these results: Protein sequences can lack the tags named with them.
